Data reported in publication PMC9774897 (Antibiotics, 2022).
Values after ≈ are worked out from the molar mass of the structure shown. Non-standard residues stand in square brackets, D forms with d. Residues, ends and D or L forms follow the SMILES beside them.

Experiments:
[1] = system: INH-monoresistant M. tuberculosis
[2] = system: RF-monoresistant M. tuberculosis
[3] = system: INH-monoresistant M. tuberculosis; remark: listed apart in the source
[4] = system: RF-monoresistant M. tuberculosis; remark: listed apart in the source

SMILES: CC(C)[C@@H](NC(=O)[C@@H](CO)NC(=O)[C@@H](CCCNC(=N)N)NC(=O)[C@@H](CCCNC(=N)N)NC(=O)[C@@H](CCCNC(=N)N)NC(=O)[C@@H](CCCNC(=N)N)NC(=O)CN)C(=O)N[C@H](CCC(N)=O)C(=O)N[C@H](Cc1c[nH]c2ccccc12)C(=O)N[C@H](CS)C(=O)N[C@H](C)C(=O)O [D-hLF 1-11] (H-G[dR][dR][dR][dR][dS][dV][dQ][dW][dC][dA]-OH; N-terminus and C-terminus assumed)
- MIC, REMA [1]: 100 µg/mL (≈ 72.7 µM)
- MIC, REMA [2]: 100 µg/mL (≈ 72.7 µM)
- MIC, MODS Assay [3]: 200 µg/mL (≈ 145 µM)
- MIC, MODS Assay [4]: 200 µg/mL (≈ 145 µM)
